Compound potency records, mixed from different reports. Data source: NIAID ChemDB in PubChem.

All rows: growth or infection tests; agent: HIV-1; read by: cytopathic effect / MTT; endpoint: EC50

ECn: concentration that inhibits the pathogen or its effect by n%. Conditions beyond the fields shown may differ between rows. Blank or dashed fields: not listed here.

{"smiles": "CC(C)=CCN1Cc2cc(Cl)cc3[nH]c(=S)n(c23)C[C@@H]1C", "cell line": "MT-4", "result": "0.005 µg/mL"}
{"smiles": "C[C@H](C[n+]1c[nH]c2c(N(C)C)nc(N)nc21)OCP(=O)(O)O", "strain": "IIIB", "cell line": "MT-4", "result": "2.3 ± 0.2 µg/mL"}
{"smiles": "Cc1ccc2c(c1)n(CCNC(=S)Nc1ccc(Br)cn1)c(=O)c1cccn12", "strain": "IIIB", "cell line": "C8166", "result": "0.38 µM"}
{"smiles": "CC(C)C(NC(=O)OC(C)(C)C)C(=O)O[C@@H](C[C@@H](Cc1ccccc1)C(=O)N1[C@H]2c3ccccc3C[C@H]2OC1(C)C)CN1CCN(Cc2cccnc2)C[C@H]1C(=O)NC(C)(C)C", "strain": "IIIB", "cell line": "MT-4", "result": ">10 µM"}
{"smiles": "CC(C)=CCN1Cc2cc(Cl)cc3[nH]c(=S)n(c23)C[C@H]1C", "cell line": "MT-4", "result": "0.094 µg/mL"}
{"smiles": "CC(=O)c1ccc(C)cc1NC(C(N)=O)c1c(Cl)cccc1Cl", "strain": "IIIB", "cell line": "MT-4", "mutations": "RT-E138K", "result": "0.132 µM"}
{"smiles": "CC(C[C@H](NC(=O)COc1cccc2cnccc12)C(=O)N[C@@H](Cc1ccccc1)[C@H](O)C(=O)N1CSC[C@H]1C(=O)NC(C)(C)C)C(F)(F)F", "strain": "IIIB", "cell line": "MT-4", "result": "0.13 µg/mL"}
{"smiles": "CCOC(=O)c1c[nH]c(Sc2cc(Cl)cc(Cl)c2)c1C(C)C", "strain": "IIIB", "cell line": "MT-4", "result": "17 µM"}
{"smiles": "CCCc1cc(=O)oc2c3c(c4c(c12)OC(C)(C)C=C4)O[C@H](CC)[C@H](C)[C@@H]3O", "strain": "IIIB", "cell line": "CEM + CEM-SS", "result": ">20.9 µM"}
{"smiles": "COCCOCCOCCOCCOCCOCCOCCOC(=O)CCC(=O)O[C@@H]1Cc2ccccc2[C@@H]1NC(=O)[C@H](Cc1ccccc1)C[C@H](O)CN1CCN(Cc2cccnc2)C[C@H]1C(=O)NC(C)(C)C", "strain": "LAI", "cell line": "CEM + CEM-SS", "result": "<0.04 µM"}
{"smiles": "CC(C)c1c(COC(N)=O)cn(Cc2ccncc2)c1Sc1cc(Cl)cc(Cl)c1", "strain": "IIIB", "cell line": "MT-4", "result": "0.3 µM"}
{"smiles": "Nc1nc(Nc2ccccc2)c2ncn(CCOCP(=O)(O)O)c2n1", "strain": "IIIB", "cell line": "MT-4", "result": "56.3 µg/mL"}
{"smiles": "CCCCCCCCCCCCCC(=O)O[C@@H](C[C@@H](Cc1ccccc1)C(=O)N[C@H]1c2ccccc2C[C@H]1OC(=O)CCCCCCCCCCCCC)CN1CCN(Cc2cccnc2)C[C@H]1C(=O)NC(C)(C)C", "strain": "LAI", "cell line": "CEM + CEM-SS", "result": "10 µM"}
{"smiles": "O=c1c2cccn2c2ccccc2n1CCNC(=S)Nc1ccc(Br)cn1", "strain": "IIIB", "cell line": "CEM + CEM-SS", "result": "0.013 µM"}
{"smiles": "Nc1nc(NC2CC2)c2ncn([C@H]3C=C[C@@H](CO)O3)c2n1", "strain": "IIIB", "cell line": "MT-2", "result": "8.6 µM"}
{"smiles": "CCn1c(=O)c(C)cn([C@@H]2O[C@H](CO[Si](C)(C)C(C)(C)C)C3(OS(=O)(=O)C=C3N)[C@H]2O[Si](C)(C)C(C)(C)C)c1=O", "strain": "Recombinant mutant", "cell line": "MT-4", "mutations": "RT-E138A", "result": "2.346 µM"}
{"smiles": "CCC(=CCN1Cc2cc(Cl)cc3[nH]c(=S)n(c23)C[C@@H]1C)CC", "cell line": "MT-4", "result": "0.006 µg/mL"}
{"smiles": "CCCCCCCCCCCCCC(=O)O[C@@H]1Cc2ccccc2[C@@H]1NC(=O)[C@H](Cc1ccccc1)C[C@H](O)CN1CCN(Cc2cccnc2)C[C@H]1C(=O)NC(C)(C)C", "strain": "IIIB", "cell line": "MT-4", "result": "0.36 µM"}
{"smiles": "O=C1CN=C(c2ccc[nH]2)c2cc(Cl)ccc2N1", "strain": "IIIB/LAI", "cell line": "MT-4", "result": ">1 µM"}
{"smiles": "CC(=O)c1ccc(C)cc1NC(C(N)=O)c1c(Cl)cccc1Cl", "strain": "NL432", "cell line": "MT-4", "result": "0.0063 µg/mL"}
{"smiles": "Cc1cn([C@H]2C[C@H](N=[N+]=[N-])[C@@H](CO)O2)c(=O)[nH]c1=O", "strain": "IIIB", "cell line": "MT-4", "result": "0.0019 µg/mL"}
{"smiles": "CC(C)c1c(CO)cn(Cc2ccncc2)c1Sc1cc(Cl)cc(Cl)c1", "strain": "IIIB", "cell line": "MT-4", "result": "0.03 µM"}
{"smiles": "Cc1ccc(C(=O)Nc2ccc(S(=O)(=O)O)c3cc(S(=O)(=O)O)cc(S(=O)(=O)O)c23)cc1NC(=O)c1cccc(NC(=O)Nc2cccc(C(=O)Nc3cc(C(=O)Nc4ccc(S(=O)(=O)O)c5cc(S(=O)(=O)O)cc(S(=O)(=O)O)c45)ccc3C)c2)c1", "strain": "IIIB", "cell line": "MT-4", "result": "42 µg/mL"}
{"smiles": "CCCc1cc(=O)oc2c3c(c4c(c12)OC(C)(C)C=C4)O[C@H](C)C(C)(C)[C@@H]3O", "strain": "IIIB", "cell line": "CEM + CEM-SS", "result": ">20.3 µM"}
{"smiles": "CC(C)=CCN1Cc2cccc3[nH]c(=S)n(c23)[C@@H](C)[C@@H]1C", "cell line": "MT-4", "result": "0.038 µg/mL"}
{"smiles": "CCCc1cc(=O)oc2c3c(c4c(c12)OC(C)(C)C=C4)O[C@@H](C)[C@H](C)[C@H]3O", "strain": "G910-6 AZT-resistant", "cell line": "MT-2", "result": ">25 µM"}
{"smiles": "Nc1nc(NC2CC2)c2ncn([C@H]3C=C[C@@H](CO)C3)c2n1", "strain": "IIIB", "cell line": "MT-2", "result": "2.5 µM"}
{"smiles": "CC(C)=CCN1Cc2cc(Cl)cc3[nH]c(=S)n(c23)C[C@@H]1C", "strain": "SK1", "cell line": "CEM + CEM-SS", "result": "0.034 µM"}
{"smiles": "Nc1ccn([C@H]2CC[C@@H](CO)O2)c(=O)n1", "strain": "IIIB", "cell line": "MT-2", "result": "0.27 µM"}
{"smiles": "CC(C)[C@H](NC(=O)N(C)C)C(=O)N[C@@H](Cc1ccccc1)C[C@H](O)[C@H](Cc1ccccc1)NC(=O)OCc1cncs1", "cell line": "MT-4", "result": "1.8 µM"}
{"smiles": "C[C@H](C[n+]1c[nH]c2c(NCCCCCCCC3CCCCC3)nc(N)nc21)OCP(=O)(O)O", "strain": "IIIB", "cell line": "CEM", "result": "20 ± 17 µg/mL"}
{"smiles": "O=c1[nH]cnc2c1ncn2[C@H]1CC[C@@H](CO)O1", "strain": "IIIB", "cell line": "MT-4", "result": "0.55 µg/mL"}
{"smiles": "CC(C)CNc1nc(N)nc2c1ncn2CCOCP(=O)(O)O", "strain": "IIIB", "cell line": "MT-4", "result": ">0.16 µg/mL"}
{"smiles": "CC(C)(C)NC(=O)[C@@H]1CN(Cc2cccnc2)CCN1C[C@@H](O)C[C@@H](Cc1ccccc1)C(=O)N[C@H]1c2ccccc2C[C@H]1O", "strain": "IIIB", "cell line": "MT-4", "result": "0.014 µg/mL"}
{"smiles": "CC(C)=CCN1CCn2c(=S)[nH]c3ccc(Cl)c(c32)C1", "cell line": "MT-4", "result": "0.1 µg/mL"}
{"smiles": "COc1ccc2c(c1)N(C(=O)OC(C)C)[C@@H](CSC)C(=S)N2", "strain": "IIIB Recombinant wild type", "cell line": "MT-4", "result": "0.0005 µM"}
{"smiles": "Cc1cn([C@H]2C[C@H](N=[N+]=[N-])[C@@H](CO)O2)c(=O)[nH]c1=O", "strain": "IIIB", "cell line": "CEM + CEM-SS", "result": "0.0019 µM"}
{"smiles": "CCc1nc(SC)n(COCc2ccccc2)c1Cc1ccccc1", "strain": "IIIB", "cell line": "MT-4", "result": ">100 µM"}
{"smiles": "Nc1ccn([C@H]2CC[C@@H](CO)O2)c(=O)n1", "strain": "IIIB", "cell line": "MT-2", "result": "~0.2 µM"}
{"smiles": "O=c1c2cccn2c2ccccc2n1CCNC(=S)Nc1ccc(Cl)cn1", "strain": "IIIB", "cell line": "CEM + CEM-SS", "result": "0.031 µM"}
{"smiles": "CCCc1cc(=O)oc2c3c(c4c(c12)OC(C)(C)C=C4)O[C@H](CC)[C@H](C)[C@H]3O", "strain": "IIIB", "cell line": "CEM + CEM-SS", "result": ">11.6 µM"}
{"smiles": "CC(C)=CCN1[C@@H](C)Cn2c(=S)[nH]c3cccc(c32)[C@@H]1C", "cell line": "MT-4", "result": "0.0048 µg/mL"}

The last 6 rows once more:

smiles	strain	cell line	mutations	result
Cc1cn([C@H]2C[C@H](N=[N+]=[N-])[C@@H](CO)O2)c(=O)[nH]c1=O	IIIB	CEM + CEM-SS	-	0.0019 µM
CCc1nc(SC)n(COCc2ccccc2)c1Cc1ccccc1	IIIB	MT-4	-	>100 µM
Nc1ccn([C@H]2CC[C@@H](CO)O2)c(=O)n1	IIIB	MT-2	-	~0.2 µM
O=c1c2cccn2c2ccccc2n1CCNC(=S)Nc1ccc(Cl)cn1	IIIB	CEM + CEM-SS	-	0.031 µM
CCCc1cc(=O)oc2c3c(c4c(c12)OC(C)(C)C=C4)O[C@H](CC)[C@H](C)[C@H]3O	IIIB	CEM + CEM-SS	-	>11.6 µM
CC(C)=CCN1[C@@H](C)Cn2c(=S)[nH]c3cccc(c32)[C@@H]1C	-	MT-4	-	0.0048 µg/mL